Results of unrelated studies side by side (data: NIAID ChemDB).

Common to all: target-level tests

ICn is the concentration giving n% inhibition.

smiles	strain	tested at	protein	mutations	measure	agent	method	result
CCN(CC)CCCC(C)NC(=O)c1ccc(-c2cc(C#N)cc(C3(C(C)C)C(C#N)=C(N)Oc4n[nH]c(C)c43)c2)s1	-	-	Serine hydroxymethyltransferase	-	Ki	Plasmodium falciparum	absorbance	0.349 µM
CC(Cc1coc2nc(N)nc(N)c12)c1ccccc1Cl	-	-	Dihydrofolate reductase	-	IC50	Toxoplasma gondii	-	11 µM
Cc1ccc(-n2nnnc2SCC(=O)Nc2ccc(-c3ccc(S(N)(=O)=O)cc3)cc2[N+](=O)[O-])c(Cl)c1	WT	-	Reverse transcriptase	-	IC50	HIV-1	PicoGreen / fluorescence	<1 µM
O=C(CCn1ncc2c(=O)oc3ccccc3c21)Nc1ccccc1Cl	-	-	Inosine monophosphate dehydrogenase	-	IC50	Cryptosporidium parvum	absorbance	>5 µM
CC(C)(C)c1ccc(-n2nnnc2SCC(=O)Nc2ccc(C(=O)Nc3ccc(O)cc3)cc2Cl)c(Cl)c1	WT	-	Reverse transcriptase	-	IC50	HIV-1	PicoGreen / fluorescence	<1 µM
O=C(Cn1ncc2c(=O)oc3ccccc3c21)Nc1ccc2c(c1)CC=N2	-	-	Inosine monophosphate dehydrogenase	-	IC50	Cryptosporidium parvum	absorbance	>5 µM
CCCCCCN(CCCCCC)C(=O)O[C@@H]([C@@H]1OC(C(=O)O)=C[C@H](N)[C@H]1NC(=O)O)[C@H](C)CO	Victoria	-	Sialidase	-	IC50	Influenza B virus	-	2.2 µM
Nc1ccn([C@H]2CC[C@@H](CO)O2)c(=O)n1	KANNO (TK+)	-	Thymidylate synthetase	-	IC50	Varicella zoster virus	-	>100 µM
COc1ccc(N2CCN(c3cncc(-c4ccc(Oc5ccccc5)cc4)n3)CC2)cc1OC	-	10 µM	UL97 kinase	-	inhibition	Cytomegalovirus	-	>15%
CC(C)(C)c1ccc(-n2nnnc2SCC(=O)Nc2ccc(OCC(=O)NC3CCN(Cc4ccccc4)CC3)cc2Cl)c(Cl)c1	WT	-	Reverse transcriptase	-	IC50	HIV-1	PicoGreen / fluorescence	<1 µM
CC(C)Oc1ncnc2c1ncn2[C@@H]1O[C@H](CO)[C@@H](O)[C@@H]1O	OKA	-	Thymidine kinase	-	Ki	Varicella zoster virus	-	>3000 µM
O=C(CCCCCl)Nc1nnc(NCCc2ccccc2)s1	-	-	Polymerase	-	IC50	Human cytomegalovirus	-	>25 µM
O=c1nc[nH]c(=O)c2c1ncn2[C@H]1O[C@@H](CO)[C@H](O)[C@@H]1O	-	-	NTPase/helicase	-	IC50	West Nile virus	helicase activity	>500 µM
Clc1ccc(-c2cncc(N3CCN(c4ccncc4)CC3)n2)cc1	-	-	UL97 kinase	-	IC50	Cytomegalovirus	-	<10 µM
CN1CCN(CC2(C#Cc3ccc(NC(=O)CSc4nnnn4-c4ccc(C5CC5)cc4Cl)c(Cl)c3)CC2)CC1	-	-	Reverse transcriptase	RT-K103 Y181C	IC50	HIV-1	PicoGreen / fluorescence	<1 µM
COc1ccc2cc(C(C)Cc3coc4nc(N)nc(N)c34)ccc2c1	-	-	Dihydrofolate reductase	-	IC50	Toxoplasma gondii	-	28 µM
CC(C)C(=O)N[C@H]1C([C@H](C)[C@@H](O)CO)OC(C(=O)O)=C[C@@H]1NS(=O)(=O)C(Cl)Cl	TYPE 3	-	Neuraminidase	-	IC50	Parainfluenza virus	-	4.3 µM
CCOc1ccc(-c2cncc(N3CCN(c4ccccc4)CC3)n2)cc1	-	1 µM	UL97 kinase	-	inhibition	Cytomegalovirus	-	<50%
CCCCCCCNC(=O)O[C@@H]([C@@H]1OC(C(=O)O)=C[C@H](N=C(N)N)[C@H]1NC(=O)O)[C@H](C)CO	Victoria	-	Sialidase	-	IC50	Influenza B virus	-	0.0033 µM
Cc1cc(C)cc(-c2cncc(N3CCN(c4cccc(C)c4C)CC3)n2)c1	-	-	UL97 kinase	-	IC50	Cytomegalovirus	-	<100 µM
C[C@H](CO)[C@@H](OC(=O)NCCSc1ncccn1)[C@@H]1OC(C(=O)O)=C[C@H](N=C(N)N)[C@H]1NC(=O)O	H3N2 AICHI	-	Sialidase	-	IC50	Influenza A virus	-	0.0062 µM
Cc1cn([C@H]2CC[C@@H](CO)O2)c(=O)[nH]c1=O	Kanno-Kohmura (TK-)	-	Thymidylate synthetase	-	IC50	Varicella zoster virus	-	>100 µM
CO[C@@H]1[C@H](O)[C@@H](CO)O[C@H]1n1cnc2c(=O)[nH][nH]c(=O)c21	-	-	NTPase/helicase	-	IC50	West Nile virus	-	30 µM
Nc1ccn(C[C@@H](CO)OCP(=O)(O)O)c(=O)n1	Kanno-Kohmura (TK-)	-	Thymidylate synthetase	-	IC50	Varicella zoster virus	-	>100 µM
O=C(O)c1ccccc1	Can2	-	Beta-carbonic anhydrase	-	Ki	Cryptococcus neoformans	-	1267 µM
Fc1ccc(N2CCN(c3cncc(-c4csc5ccccc45)n3)CC2)cc1	-	1 µM	UL97 kinase	-	inhibition	Cytomegalovirus	-	<50%
O=c1[nH]c(=O)n([C@H]2C[C@H](O)[C@@H](CO)O2)cc1/C=C/Br	KANNO (TK+)	-	Thymidylate synthetase	-	IC50	Varicella zoster virus	-	<0.001 µM
COc1nc(Cl)nc2c1ncn2[C@@H]1O[C@H](CO)[C@@H](O)[C@@H]1O	OKA	-	Thymidine kinase	-	Ki	Varicella zoster virus	-	930 µM
Cc1[nH]nc2c1C(c1cc(Cl)cc(C#N)c1)(C(C)C)C(C#N)=C(N)O2	-	-	Serine hydroxymethyltransferase	-	IC50	Plasmodium falciparum	absorbance	0.52 µM
Clc1cccc(N2CCN(c3cncc(-c4csc5ccccc45)n3)CC2)c1	-	10 µM	UL97 kinase	-	inhibition	Cytomegalovirus	-	>15%
CCc1cc(Nc2cc(=O)n(CCCO)c(=O)[nH]2)ccc1C	-	-	DNA polymerase	-	IC50	Staphylococcus aureus	-	0.3 µM
CCCCCCCCCCCCC/C=C/[C@@H](O)[C@H](CO[C@@H]1O[C@H](CO)[C@H](O)[C@H](OS(=O)(=O)O)[C@H]1O)NC(=O)CCCCCCCCCCCCCCCCCCCCCCC	Influenza A/Memphis/102/72 (H3N2)	200 µM	Sialidase	-	inhibition	Influenza A virus	-	98.1%
O=C(/C=C/c1ccccc1)Nc1nnc(NC2CCN(Cc3ccccc3)CC2)s1	-	-	Polymerase	-	IC50	Human cytomegalovirus	-	>25 µM
CN(C)S(=O)(=O)c1ccc(NC(=O)CSc2nnnn2-c2ccc(C(C)(C)C)cc2Cl)c(Cl)c1	-	-	Reverse transcriptase	RT-K103 Y181C	IC50	HIV-1	PicoGreen / fluorescence	<1 µM
Cc1ccc(N2CCN(c3cncc(-c4cccc(C)c4)n3)CC2)cc1	-	-	UL97 kinase	-	IC50	Cytomegalovirus	-	<100 µM
C[C@H](Cn1cnc2c(N)ncnc21)OCP(=O)(O)O	Kanno-Kohmura (TK-)	-	Thymidylate synthetase	-	IC50	Varicella zoster virus	-	>100 µM
CC(C(=O)Nc1ccc(NC(=O)CSc2nnnn2-c2ccc(C(C)(C)C)cc2Cl)c(Cl)c1)c1ccccc1	WT	-	Reverse transcriptase	-	IC50	HIV-1	PicoGreen / fluorescence	<1 µM
C[C@H](CO)[C@@H](OC(=O)NCCCCNCCN)[C@@H]1OC(C(=O)O)=C[C@H](N=C(N)N)[C@H]1NC(=O)O	Victoria	-	Sialidase	-	IC50	Influenza B virus	-	0.04 µM
Cc1ccc(S(=O)(=O)N[C@@H](C)c2nc3ccsc3c(=O)o2)cc1	-	-	CMV protease	-	IC50	Cytomegalovirus	HPLC	>10 µM
CC(C)(C)c1ccc(-n2nnnc2SCC(=O)Nc2ccc(NC(=O)Cc3cc[n+]([O-])cc3)cc2Cl)c(Cl)c1	-	-	Reverse transcriptase	RT-K103 Y181C	IC50	HIV-1	PicoGreen / fluorescence	<1 µM
COC(=O)CCc1cccc(-c2cc(Cl)cc(C3(C4CCC4)C(C#N)=C(N)Oc4n[nH]c(C)c43)c2)c1	-	-	Serine hydroxymethyltransferase	-	IC50	Plasmodium falciparum	absorbance	0.17 µM
CN(C)c1ccc(CC(=O)Nc2ccc(NC(=O)CSc3nnnn3-c3ccc(C(C)(C)C)cc3Cl)c(Cl)c2)cc1	-	-	Reverse transcriptase	RT-K103 Y181C	IC50	HIV-1	PicoGreen / fluorescence	<1 µM
CC(C)C[C@H](NC(=O)[C@@H](O)[C@H](N)Cc1ccccc1)C(=O)O	-	-	PfM1AAP	-	Ki	Plasmodium falciparum	fluorescence	1.6 µM
CN(C)c1ccc(CNC(=O)C(C)(C)C#Cc2ccc(NC(=O)CSc3nnnn3-c3ccc(C4CC4)cc3Cl)c(Cl)c2)cc1	-	-	Reverse transcriptase	RT-K103 Y181C	IC50	HIV-1	PicoGreen / fluorescence	<1 µM
Cc1cc(C)cc(-c2cncc(N3CCN(c4cccc(C)c4)C(C)C3)n2)c1	-	10 µM	UL97 kinase	-	inhibition	Cytomegalovirus	-	>15%
Cc1ccc(-n2nnnc2SCC(=O)Nc2ccc(-c3nn[nH]n3)cc2Cl)c(Cl)c1	WT	-	Reverse transcriptase	-	IC50	HIV-1	PicoGreen / fluorescence	<1 µM
O=C(/C=C/c1ccccc1Cl)Nc1nnc(NCc2cccs2)s1	-	-	Polymerase	-	IC50	Human cytomegalovirus	-	<25 µM
CC(C)(C)c1ccc(-n2nnnc2SCC(=O)Nc2ccc(NS(=O)(=O)Cc3ccccc3)cc2Cl)c(Cl)c1	-	-	Reverse transcriptase	RT-K103 Y181C	IC50	HIV-1	PicoGreen / fluorescence	<1 µM
COc1ccc(C(C)Cc2coc3nc(N)nc(N)c23)cc1OC	-	-	Dihydrofolate reductase	-	IC50	Toxoplasma gondii	-	10 µM
CCCN(CCC)C(=O)O[C@@H]([C@@H]1OC(C(=O)O)=C[C@H](N)[C@H]1NC(=O)O)[C@H](C)CO	H3N2 AICHI	-	Sialidase	-	IC50	Influenza A virus	-	9.8 µM
COc1cc(/C(C)=C/c2coc3nc(N)nc(N)c23)cc(OC)c1OC	-	-	Dihydrofolate reductase	-	IC50	Toxoplasma gondii	-	25 µM
CCc1cc(Nc2cc(=O)n(CC3CCN(C(=O)c4ccc(C(F)(F)F)o4)CC3)c(=O)[nH]2)ccc1C	-	-	DNA polymerase	-	IC50	Staphylococcus aureus	-	0.03 µM
CC(C)(N)C#Cc1ccc(NC(=O)CSc2nnnn2-c2cc(C3CC3)cc(C(F)(F)F)c2Cl)c(Cl)c1F	-	-	Reverse transcriptase	RT-K103 Y181C	IC50	HIV-1	PicoGreen / fluorescence	<1 µM
COc1ccc(-c2cncc(N3CCN(c4cccc5[nH]ccc45)CC3)n2)cc1	-	1 µM	UL97 kinase	-	inhibition	Cytomegalovirus	-	<50%
CC(C)(C#Cc1ccc(NC(=O)CSc2nnnn2-c2ccc(C(C)(C)C)cc2Cl)c(Cl)c1)C(=O)NCCN1CCOCC1	-	-	Reverse transcriptase	RT-K103 Y181C	IC50	HIV-1	PicoGreen / fluorescence	<1 µM
Cc1ccc(C(=O)Nc2nnc(NCCc3ccccc3)s2)cc1	-	-	Polymerase	-	IC50	Human cytomegalovirus	-	>25 µM
CN(C)c1ccc(Cl)c(-n2nnnc2SCC(=O)Nc2ccc(C#CC(C)(C)C(=O)O)cc2Cl)c1	WT	-	Reverse transcriptase	-	IC50	HIV-1	PicoGreen / fluorescence	<1 µM
COc1ccc(OC)c(C(C)Cc2coc3nc(N)nc(N)c23)c1	-	-	Dihydrofolate reductase	-	IC50	Toxoplasma gondii	-	15 µM
CC(C)(C)c1ccc(-n2nnnc2SCC(=O)Nc2ccc(OCC(=O)Nc3ccc(O)cc3)cc2Cl)c(Cl)c1	-	-	Reverse transcriptase	RT-K103 Y181C	IC50	HIV-1	PicoGreen / fluorescence	<1 µM
O=C(CCCCCl)Nc1nnc(NCC(c2ccccc2)c2ccccc2)s1	-	-	Polymerase	-	IC50	Human cytomegalovirus	-	>25 µM
CC(C)(C#Cc1ccc(NC(=O)CSc2nnnn2-c2ccc(C3CC3)cc2Cl)c(Cl)c1)NC(=O)OC(C)(C)C	-	-	Reverse transcriptase	RT-K103 Y181C	IC50	HIV-1	PicoGreen / fluorescence	<1 µM
C[C@H](NC(=O)OC(C)(C)C)c1nc2ccsc2c(=O)o1	-	-	CMV protease	-	IC50	Cytomegalovirus	HPLC	>10 µM
CC(C)(C)c1ccc(-n2nnnc2SCC(=O)Nc2ccc(OCC(=O)NC(CO)C(=O)O)cc2Cl)c(Cl)c1	WT	-	Reverse transcriptase	-	IC50	HIV-1	PicoGreen / fluorescence	<1 µM
Cc1[nH]nc2c1C(c1cc(C#N)cc(C(F)(F)F)c1)(C1CC=CC1)C(C#N)=C(N)O2	-	-	Serine hydroxymethyltransferase	-	IC50	Plasmodium falciparum	absorbance	0.66 µM
CC(C)(C#Cc1ccc(NC(=O)CSc2nnnn2-c2ccc(C3CC3)cc2Cl)c(Cl)c1)NC(=O)CNCCCn1ccnc1	-	-	Reverse transcriptase	RT-K103 Y181C	IC50	HIV-1	PicoGreen / fluorescence	<1 µM
O=C(/C=C/c1ccccc1Cl)Nc1nnc(NCc2ccncc2)s1	-	-	Polymerase	-	IC50	Human cytomegalovirus	-	>25 µM

An empty or dashed field is not shown. Inhibition is in % at the dose shown (toxicity tests: loss of growth or viability). Lines come from different laboratories, so protocols vary.